Anti-infective test results gathered from many reports (values: NIAID ChemDB through PubChem).

All rows: tests in culture; species: Mycobacterium avium complex

a–b is a range or a potency band. Lines come from different laboratories, so protocols vary. A number after MIC or MFC names an inhibition level or a share of isolates.

{"compound": "C[C@H]1COc2c(N3CCN(C)CC3)c(F)cc3c(=O)c(C(=O)O)cn1c23", "strain": "16 isolates", "read-out": "MIC90", "value": "12.5 µg/mL"}
{"compound": "CO[C@H]1/C=C/O[C@@]2(C)Oc3c(C)c(O)c4c(O)c(c(/C=N/N5CCN(C)CC5)c(O)c4c3C2=O)NC(=O)/C(C)=C\\C=C\\[C@H](C)[C@H](O)[C@@H](C)[C@@H](O)[C@@H](C)[C@H](OC(C)=O)[C@@H]1C", "strain": "13034 (serotype 18)", "read-out": "MIC", "value": "100 µg/mL"}
{"compound": "CC[C@H]1OC(=O)[C@H](C)[C@@H](O[C@H]2C[C@@](C)(OC)[C@@H](O)[C@H](C)O2)[C@H](C)[C@@H](O[C@@H]2O[C@H](C)C[C@H](N(C)C)[C@H]2O)[C@](C)(OC)C[C@@H](C)C(=O)[C@H](C)[C@@H](O)[C@]1(C)O", "strain": "N-966", "read-out": "MIC", "value": "16 µg/mL"}
{"compound": "CC(C)CN1CCN(c2cc3c(cc2F)c(=O)c(C(=O)O)cn3C(C)(C)C)CC1", "strain": "14 strains", "read-out": "MIC50", "value": "4 µg/mL"}
{"compound": "CO[C@H]1/C=C/O[C@@]2(C)Oc3c(C)c(O)c4c(=O)c(c5oc6cc(N(C)CC(C)C)cc(=O)c6nc5c4c3=C2O)NC(=O)/C(C)=C\\C=C\\[C@H](C)[C@H](O)[C@@H](C)[C@@H](O)[C@@H](C)[C@H](OC(C)=O)[C@@H]1C", "strain": "31F093T", "read-out": "MIC", "value": "0.6 µg/mL"}
{"compound": "CC[C@H](C)N1CCN(c2cc(=O)c3nc4c(oc3c2)c2c(=O)c3c(O)c(C)c5c(c34)=C(O)[C@@](C)(O/C=C/[C@H](OC)[C@@H](C)[C@@H](OC(C)=O)[C@H](C)[C@H](O)[C@H](C)[C@@H](O)[C@@H](C)/C=C/C=C(/C)C(=O)N2)O5)CC1", "strain": "18 strains", "read-out": "MIC90", "value": "3.13 µg/mL"}
{"compound": "CC1COc2c(N3CCN(C)CC3)c(F)cc3c(=O)c(C(=O)O)cn1c23", "strain": "16 isolates", "read-out": "MIC90", "value": "25 µg/mL"}
{"compound": "CO[C@H]1/C=C/O[C@@]2(C)Oc3c(C)c(O)c4c(O)c(c(/C=N/N5CCN(C/C=C/c6ccccc6)CC5)c(O)c4c3C2=O)NC(=O)/C(C)=C\\C=C\\[C@H](C)[C@H](O)[C@@H](C)[C@@H](O)[C@@H](C)[C@H](OC(C)=O)[C@@H]1C", "strain": "101", "read-out": "MIC", "value": "0.06 µg/mL"}
{"compound": "CO[C@H]1/C=C/O[C@@]2(C)Oc3c(C)c(O)c4c(=O)c(c5oc6cc(N7CCN(CC(C)C)CC7)cc(=O)c6nc5c4c3=C2O)NC(=O)/C(C)=C\\C=C\\[C@H](C)[C@H](O)[C@@H](C)[C@@H](O)[C@@H](C)[C@H](OC(C)=O)[C@@H]1C", "strain": "18 strains", "read-out": "MIC50", "value": "0.05 µg/mL"}
{"compound": "CO[C@H]1/C=C/O[C@@]2(C)Oc3c(C)c(O)c4c(O)c(c(/C=N/N5CCN(C)CC5)c(O)c4c3C2=O)NC(=O)/C(C)=C\\C=C\\[C@H](C)[C@H](O)[C@@H](C)[C@@H](O)[C@@H](C)[C@H](OC(C)=O)[C@@H]1C", "strain": "Strain #3", "read-out": "MIC", "value": "1 µg/mL"}
{"compound": "NNC(=O)c1ccncc1", "strain": "13034 (serotype 18)", "read-out": "MIC", "value": "3.2 µg/mL"}
{"compound": "CCC1CN(c2c(F)cc3c(=O)c(C(=O)O)cn(C4CC4)c3c2Cl)CCN1", "strain": "14 strains", "read-out": "MIC90", "value": "4 µg/mL"}
{"compound": "CC[C@H]1OC(=O)[C@H](C)[C@@H](O[C@H]2C[C@@](C)(OC)[C@@H](O)[C@H](C)O2)[C@H](C)[C@@H](O[C@@H]2O[C@H](C)C[C@H](N(C)C)[C@H]2O)[C@](C)(O)C[C@@H](C)CN(C)[C@H](C)[C@@H](O)[C@]1(C)O", "strain": "20 strains", "read-out": "MIC90", "value": "32 µg/mL"}
{"compound": "C[C@H]1c2cccc(O)c2C(O)=C2C(=O)[C@]3(O)C(O)=C(C(N)=O)C(=O)[C@@H](N(C)C)[C@@H]3[C@@H](O)[C@@H]21", "strain": "11 strains", "read-out": "MIC90", "value": ">128 µg/mL"}
{"compound": "CO[C@H]1/C=C/O[C@@]2(C)Oc3c(C)c(O)c4c(O)c(c(/C=N/N5CCN(C)CC5)c(O)c4c3C2=O)NC(=O)/C(C)=C\\C=C\\[C@H](C)[C@H](O)[C@@H](C)[C@@H](O)[C@@H](C)[C@H](OC(C)=O)[C@@H]1C", "strain": "31F093T", "read-out": "MIC", "value": "5 µg/mL"}
{"compound": "COc1c(N2CCNC(C)C2)c(F)cc2c(=O)c(C(=O)O)cn(C3CC3)c12", "strain": "N-444", "read-out": "MIC", "value": "2 µg/mL"}
{"compound": "CC(C)N=c1cc2n(-c3ccc(Cl)cc3)c3ccccc3nc-2cc1Nc1ccc(Cl)cc1", "strain": "SK46/HIV+", "read-out": "MIC", "value": "2 µg/mL"}
{"compound": "CC[C@H]1OC(=O)[C@H](C)[C@@H](O[C@H]2C[C@@](C)(OC)[C@@H](O)[C@H](C)O2)[C@H](C)[C@@H](O[C@@H]2O[C@H](C)C[C@H](N(C)C)[C@H]2O)[C@](C)(OC)C[C@@H](C)C(=O)[C@H](C)[C@@H](O)[C@]1(C)O", "strain": "20 strains", "read-out": "MIC90", "value": "4 µg/mL"}
{"compound": "CCn1cc(C(=O)O)c(=O)c2cc(F)c(N3CCNC(C)C3)c(F)c21", "strain": "4 strains", "read-out": "MBC", "value": "8–16 µg/mL"}
{"compound": "NCC[C@H](O)C(=O)N[C@@H]1C[C@H](N)[C@@H](O[C@H]2O[C@H](CN)[C@@H](O)[C@H](O)[C@H]2O)[C@H](O)[C@H]1O[C@H]1O[C@H](CO)[C@@H](O)[C@H](N)[C@H]1O", "strain": "20 strains", "read-out": "MIC90", "value": "8 µg/mL"}
{"compound": "CO[C@H]1/C=C/O[C@@]2(C)Oc3c(C)c(O)c4c(O)c(c5c(c4c3C2=O)NC2(CCN(CC(C)C)CC2)N=5)=NC(=O)/C(C)=C\\C=C\\[C@H](C)[C@H](O)[C@@H](C)[C@@H](O)[C@@H](C)[C@H](OC(C)=O)[C@@H]1C", "strain": "9141", "read-out": "MBC", "value": "16 µg/mL"}
{"compound": "CC[C@@H](CO)NCCN[C@@H](CC)CO", "strain": "3218", "read-out": "MIC", "value": "32 µg/mL"}
{"compound": "CCC(C)N1CCN(c2cc(=O)c3nc4c(oc3c2)c2c(=O)c3c(O)c(C)c5c(c34)=C(O)[C@@](C)(O/C=C/[C@H](OC)[C@@H](C)[C@@H](OC(C)=O)[C@H](C)[C@H](O)[C@H](C)[C@@H](O)[C@@H](C)/C=C/C=C(/C)C(=O)N2)O5)CC1", "strain": "20 strains", "read-out": "MIC90", "value": "0.3 µg/mL"}
{"compound": "CC[C@H]1OC(=O)[C@H](C)[C@@H](O[C@H]2C[C@@](C)(OC)[C@@H](O)[C@H](C)O2)[C@H](C)[C@@H](O[C@@H]2O[C@H](C)C[C@H](N(C)C)[C@H]2O)[C@](C)(OC)C[C@@H](C)C(=O)[C@H](C)[C@@H](O)[C@]1(C)O", "strain": "Strain 1", "read-out": "MIC", "value": "0.5 µg/mL"}
{"compound": "CC1CN(c2cc3c(cc2F)c(=O)c(C(=O)O)cn3-c2ccc(F)cc2F)CCN1", "strain": "3219", "read-out": "MIC", "value": "4 µg/mL"}
{"compound": "N[C@@H]1CN(c2c(F)cc3c(=O)c(C(=O)O)cn([C@@H]4C[C@@H]4F)c3c2Cl)CC12CC2", "strain": "16 isolates", "read-out": "MIC90", "value": "12.5 µg/mL"}
{"compound": "CN[C@@H]1[C@@H](O)[C@@H](O[C@@H]2[C@@H](O)[C@H](O[C@H]3O[C@H](CN)CC[C@H]3N)[C@@H](N)C[C@H]2N)OC[C@]1(C)O", "strain": "25 isolates", "read-out": "MIC50", "value": "32 µg/mL"}
{"compound": "CO[C@H]1/C=C/O[C@@]2(C)Oc3c(C)c(O)c4c(=O)c(c5oc6cc(N(C)C)cc(=O)c6nc5c4c3=C2O)NC(=O)/C(C)=C\\C=C\\[C@H](C)[C@H](O)[C@@H](C)[C@@H](O)[C@@H](C)[C@H](OC(C)=O)[C@@H]1C", "strain": "31F093T", "read-out": "MIC", "value": "0.3 µg/mL"}
{"compound": "CC(C)N=c1cc2n(-c3ccc(Cl)cc3)c3ccccc3nc-2cc1Nc1ccc(Cl)cc1", "strain": "20 strains", "read-out": "MIC90", "value": "<0.125 µg/mL"}
{"compound": "CCn1cc(C(=O)O)c(=O)c2cc(F)c(N3CCNCC3)cc21", "read-out": "MIC90", "value": ">16 µg/mL"}
{"compound": "CNC1CCCN(c2c(F)cc3c(=O)c(C(=O)O)cn(C4CC4)c3c2OC)C1", "strain": "16 isolates", "read-out": "MIC90", "value": "25 µg/mL"}
{"compound": "CCn1cc(C(=O)O)c(=O)c2cc(F)c(N3CCN(C)CC3)cc21", "strain": "CIPT 140310031", "read-out": "MIC", "value": "20 µg/mL"}
{"compound": "CCn1cc(C(=O)O)c(=O)c2cc(F)c(N3CCNCC3)nc21", "strain": "16 isolates", "read-out": "MIC50", "value": "50 µg/mL"}
{"compound": "CO[C@H]1/C=C/O[C@@]2(C)Oc3c(C)c(O)c4c(O)c(c(/C=N/N5CCN(C6CCCC6)CC5)c(O)c4c3C2=O)NC(=O)/C(C)=C\\C=C\\[C@H](C)[C@H](O)[C@@H](C)[C@@H](O)[C@@H](C)[C@H](OC(C)=O)[C@@H]1C", "strain": "Serotype 7", "read-out": "MIC", "value": "2.5 µg/mL"}
{"compound": "CO[C@H]1/C=C/O[C@@]2(C)Oc3c(C)c(O)c4c(=O)c(c5oc6cc(N7CCNCC7)cc(=O)c6nc5c4c3=C2O)NC(=O)/C(C)=C\\C=C\\[C@H](C)[C@H](O)[C@@H](C)[C@@H](O)[C@@H](C)[C@H](OC(C)=O)[C@@H]1C", "strain": "31F093T", "read-out": "MIC", "value": "0.6 µg/mL"}
{"compound": "CN(C)c1cc(NC(=O)CNC(C)(C)C)c(O)c2c1C[C@H]1C[C@H]3[C@H](N(C)C)C(=O)C(C(N)=O)=C(O)[C@@]3(O)C(=O)C1=C2O", "strain": "11 strains", "read-out": "MIC50", "value": ">32 µg/mL"}
{"compound": "CCn1cc(C(=O)O)c(=O)c2cc(F)c(N3CCNCC3)cc21", "strain": "CIPT 140310031", "read-out": "MIC", "value": "20 µg/mL"}
{"compound": "CO[C@H]1/C=C/O[C@@]2(C)Oc3c(C)c(O)c4c(O)c(c5c(c4c3C2=O)NC2(CCN(CC(C)C)CC2)N=5)=NC(=O)/C(C)=C\\C=C\\[C@H](C)[C@H](O)[C@@H](C)[C@@H](O)[C@@H](C)[C@H](OC(C)=O)[C@@H]1C", "strain": "31F093T", "read-out": "MIC", "value": "1.25 µg/mL"}
{"compound": "CC[C@@H](CO)NCCN[C@@H](CC)CO", "strain": "N-444", "read-out": "MIC", "value": "16 µg/mL"}
{"compound": "C[C@@H]1CN(c2cc3c(cc2F)c(=O)c(C(=O)O)cn3C(C)(C)C)C[C@H](C)N1", "strain": "14 strains", "read-out": "MIC50", "value": "0.25 µg/mL"}
{"compound": "CO[C@H]1/C=C/O[C@@]2(C)Oc3c(C)c(O)c4c(O)c(c(/C=N/N5CCN(C)CC5)c(O)c4c3C2=O)NC(=O)/C(C)=C\\C=C\\[C@H](C)[C@H](O)[C@@H](C)[C@@H](O)[C@@H](C)[C@H](OC(C)=O)[C@@H]1C", "strain": "N-260", "read-out": "MIC", "value": "3.13 µg/mL"}
{"compound": "CCN1CCN(c2c(F)cc3c(=O)c(C(=O)O)cn(C4CC4)c3c2OC)CC1", "strain": "14 strains", "read-out": "MIC50", "value": "0.5 µg/mL"}
{"compound": "CC[C@@H](CO)NCCN[C@@H](CC)CO", "strain": "2212-4", "read-out": "MBC", "value": "30 µg/mL"}
{"compound": "NCC[C@H](O)C(=O)N[C@@H]1C[C@H](N)[C@@H](O[C@H]2O[C@H](CN)[C@@H](O)[C@H](O)[C@H]2O)[C@H](O)[C@H]1O[C@H]1O[C@H](CO)[C@@H](O)[C@H](N)[C@H]1O", "strain": "LR25/HIV+", "read-out": "MIC", "value": "<0.61 µg/mL"}
{"compound": "CNCC1CCN(c2c(F)cc3c(=O)c(C(=O)O)cn(C4CC4)c3c2Br)C1", "strain": "14 strains", "read-out": "MIC50", "value": "≥32 µg/mL"}
{"compound": "CN[C@@H]1[C@H](O[C@H]2[C@H](O[C@H]3[C@H](O)[C@@H](O)[C@H](N=C(N)N)[C@@H](O)[C@@H]3N=C(N)N)O[C@@H](C)[C@]2(O)C=O)O[C@@H](CO)[C@H](O)[C@H]1O", "strain": "isolate C-22 23 25 36 41 33", "read-out": "MIC", "value": "≥400 µg/mL"}
{"compound": "CC1CN(c2cc3c(cc2F)c(=O)c(C(=O)O)cn3C2CC2)CCN1", "strain": "14 strains", "read-out": "MIC50", "value": "0.5 µg/mL"}
{"compound": "CN[C@@H]1[C@H](O)[C@H](NC)[C@H]2O[C@@]3(O)C(=O)C[C@@H](C)O[C@H]3O[C@@H]2[C@H]1O", "strain": "ATCC 35718", "read-out": "MBC", "value": ">64 µg/mL"}

A second listing of 4 rows from above:

| compound | strain | read-out | value |
|---|---|---|---|
| CNCC1CCN(c2c(F)cc3c(=O)c(C(=O)O)cn(C4CC4)c3c2Br)C1 | 14 strains | MIC50 | ≥32 µg/mL |
| CC(C)CN1CCN(c2cc3c(cc2F)c(=O)c(C(=O)O)cn3C(C)(C)C)CC1 | 14 strains | MIC50 | 4 µg/mL |
| CO[C@H]1/C=C/O[C@@]2(C)Oc3c(C)c(O)c4c(=O)c(c5oc6cc(N(C)C)cc(=O)c6nc5c4c3=C2O)NC(=O)/C(C)=C\C=C\[C@H](C)[C@H](O)[C@@H](C)[C@@H](O)[C@@H](C)[C@H](OC(C)=O)[C@@H]1C | 31F093T | MIC | 0.3 µg/mL |
| CO[C@H]1/C=C/O[C@@]2(C)Oc3c(C)c(O)c4c(O)c(c(/C=N/N5CCN(C/C=C/c6ccccc6)CC5)c(O)c4c3C2=O)NC(=O)/C(C)=C\C=C\[C@H](C)[C@H](O)[C@@H](C)[C@@H](O)[C@@H](C)[C@H](OC(C)=O)[C@@H]1C | 101 | MIC | 0.06 µg/mL |